## Mutational tolerance of the Zika virus NS2B-NS3 protease

The measurements come from Ni et al. 2025 (doi:10.1038/s41467-025-63602-z).

Chain scanned (Zika virus MR766; NS2B from position 2 to 131, then the start of NS3):
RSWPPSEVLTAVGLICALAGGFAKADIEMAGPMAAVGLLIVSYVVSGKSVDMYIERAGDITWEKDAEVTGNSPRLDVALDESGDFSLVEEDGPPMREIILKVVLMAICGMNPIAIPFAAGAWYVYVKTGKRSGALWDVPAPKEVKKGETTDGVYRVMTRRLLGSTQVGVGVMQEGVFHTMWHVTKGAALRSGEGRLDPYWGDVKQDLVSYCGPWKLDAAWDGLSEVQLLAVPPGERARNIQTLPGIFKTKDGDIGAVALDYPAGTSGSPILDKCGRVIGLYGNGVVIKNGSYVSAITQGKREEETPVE

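Pools of virus carrying all single amino acid changes were selected for growth in Huh-7.5 cells. Deep sequencing gave the change in frequency of each mutant relative to wild type, averaged over three replicate libraries (two for positions 207-308). The study looked for pockets that tolerate few changes, as a guide for inhibitor design.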

The number is log2 of the effect relative to wild type; negative values mean reduced growth, higher values better tolerance. Each entry names the wild-type residue, its position and the residue put in its place. Values above 0 are not proof of better growth: six high scorers were tested one by one, five grew less well than wild type and one about as well. Position 1 still belongs to NS2A. In the paper, -1 or higher counts as tolerated. Stop codons (*) centre on -7 and mark the level of dead virus. Positions 1-103, 104-206 and 207-308 were made and measured as separate libraries.

- L280Q: -5.55
- K130N: -6.79
- S266H: -4.81
- C274*: -6.88
- Y281D: -5.29
- T150A: -3.93
- L271T: -4.73
- T249F: -5.38
- Q205Y: -6.45
- A34Y: -5.74
- E7S: -3.11
- V68L: -6.61
- P262A: -5.41
- W3E: -6.96
- I246T: -0.40
- P233E: -5.36
- W220T: -7.19
- E28S: -2.90
- G282F: -4.11
- N289D: -4.07
- V307A: -0.93
- P5N: 0.75
- A121V: -0.80
- L207V: -2.62
- G83P: -7.52
- G21V: -5.16
- E89V: -2.47
- M172I: -2.17
- S164M: -1.60
- V176*: -7.18
- C108M: -5.51
- D76F: -0.48
- K64F: -0.64
- G133D: -4.12
- L18V: -1.72
- I240*: -8.22
- E308H: 1.21
- G186R: -6.47
- K146T: -1.93
- E63V: -1.75
- I107Q: -5.12
- P306S: -1.40
- V88R: -6.38
- Y53A: -6.72
- V183H: -4.48
- M110*: -6.39
- I113L: -1.39
- G264S: -6.19
- D84M: -5.86
- D26A: -6.09
- A134*: -6.05
- P233I: -5.57
- V8P: -0.06
- A35S: -5.16
- R160D: -5.47
- R1H: -7.54
- G129L: -7.08
- S42W: -6.25
- D80*: -7.48
- A295N: -4.84
- M172A: -6.71
- I240E: -5.57
- E304Q: -0.34
- W220E: -5.07
- E148A: -1.56
- V286T: -6.24

The last 8 entries again:

* D80* -> -7.48
* A295N -> -4.84
* M172A -> -6.71
* I240E -> -5.57
* E304Q -> -0.34
* W220E -> -5.07
* E148A -> -1.56
* V286T -> -6.24